{"source": "patent US20210188921A1", "key": {"[1]": {"biological_target": "BG505 SOSIP.6R.664 (HIV-1 strain BG505)", "experiment": "SPR, single-cycle kinetics, trimer captured on immobilized 2G12, sCD4 injected"}, "[2]": {"biological_target": "BG505 SOSIP.6R.664 (HIV-1 strain BG505)", "experiment": "SPR single-cycle kinetics, trimer captured on immobilised 2G12, sCD4 injected, 1:1 Langmuir fit; standard error in parentheses"}, "[3]": {"biological_target": "BG505.DS-SOSIP.3mut.6R.664 (HIV-1 strain BG505)", "experiment": "SPR, single-cycle kinetics (as summed up in the conclusion)"}, "[4]": {"biological_target": "BG505.DS-SOSIP.3mut.6R.664 (HIV-1 strain BG505)", "experiment": "SPR, single-cycle kinetics, trimer captured on immobilized 2G12, sCD4 injected"}, "[5]": {"biological_target": "BG505.DS-SOSIP.6R.664 (HIV-1 strain BG505)", "experiment": "SPR, single-cycle kinetics, trimer captured on immobilized 2G12, sCD4 injected"}, "[6]": {"biological_target": "BG505.DS-SOSIP.3mut.6R.664 (HIV-1 strain BG505)", "experiment": "SPR single-cycle kinetics, trimer captured on immobilised 2G12, sCD4 injected, 1:1 Langmuir fit; standard error in parentheses"}, "[7]": {"biological_target": "BG505.DS-SOSIP.4mut.6R.664 (HIV-1 strain BG505)", "experiment": "SPR single-cycle kinetics, trimer captured on immobilised 2G12, sCD4 injected, 1:1 Langmuir fit; standard error in parentheses"}, "[8]": {"biological_target": "BG505.DS-SOSIP.6R.664 (HIV-1 strain BG505)", "experiment": "SPR single-cycle kinetics, trimer captured on immobilised 2G12, sCD4 injected, 1:1 Langmuir fit; standard error in parentheses"}, "DS-SOSIP.2mut": {"biological_target": "DS-SOSIP.2mut", "experiment": "SPR single-cycle kinetics, trimer captured on immobilised 2G12, sCD4 injected, 1:1 Langmuir fit; standard error in parentheses"}, "DS-SOSIP.5mut": {"biological_target": "DS-SOSIP.5mut", "experiment": "SPR single-cycle kinetics, trimer captured on immobilised 2G12, sCD4 injected, 1:1 Langmuir fit; standard error in parentheses"}, "[9]": {"biological_target": "DS-SOSIP.A329P (HIV-1 strain BG505)", "experiment": "SPR single-cycle kinetics, trimer captured on immobilised 2G12, sCD4 injected, 1:1 Langmuir fit; standard error in parentheses"}}, "data": [{"substance": "soluble CD4 (from UniProt P01730 26-396) (receptor)", "values": [{"measurement": "Kd", "setting": "[1]", "value": 1.4, "unit": "nM"}, {"measurement": "Kd", "setting": "[2]", "value": 1.08, "unit": "nM"}, {"measurement": "koff", "setting": "[2]", "value": 0.000112, "unit": "s⁻¹"}, {"measurement": "kon", "setting": "[2]", "value": 103000, "unit": "M⁻¹ s⁻¹"}]}, {"substance": "soluble CD4 (from UniProt P01730 26-396) (receptor; other documents disagree on this pair)", "values": [{"measurement": "Kd", "setting": "[3]", "value": 400, "unit": "nM"}, {"measurement": "fold reduction of sCD4 binding affinity (Kd) against DS-SOSIP", "setting": "[4]", "value": "30 to 40", "unit": "fold"}, {"measurement": "Kd", "setting": "[5]", "value": 11, "unit": "nM"}, {"measurement": "Kd", "setting": "[6]", "value": 357, "unit": "nM"}, {"measurement": "koff", "setting": "[6]", "value": 0.0115, "unit": "s⁻¹"}, {"measurement": "kon", "setting": "[6]", "value": 32200, "unit": "M⁻¹ s⁻¹"}, {"measurement": "Kd", "setting": "[7]", "value": 363, "unit": "nM"}, {"measurement": "koff", "setting": "[7]", "value": 0.012, "unit": "s⁻¹"}, {"measurement": "kon", "setting": "[7]", "value": 33000, "unit": "M⁻¹ s⁻¹"}, {"measurement": "Kd", "setting": "[8]", "value": 11.3, "unit": "nM"}, {"measurement": "koff", "setting": "[8]", "value": 0.00111, "unit": "s⁻¹"}, {"measurement": "kon", "setting": "[8]", "value": 98200, "unit": "M⁻¹ s⁻¹"}, {"measurement": "Kd", "setting": "DS-SOSIP.2mut", "value": 379, "unit": "nM"}, {"measurement": "koff", "setting": "DS-SOSIP.2mut", "value": 0.0117, "unit": "s⁻¹"}, {"measurement": "kon", "setting": "DS-SOSIP.2mut", "value": 30800, "unit": "M⁻¹ s⁻¹"}, {"measurement": "Kd", "setting": "DS-SOSIP.5mut", "value": 400, "unit": "nM"}, {"measurement": "koff", "setting": "DS-SOSIP.5mut", "value": 0.0142, "unit": "s⁻¹"}, {"measurement": "kon", "setting": "DS-SOSIP.5mut", "value": 35400, "unit": "M⁻¹ s⁻¹"}, {"measurement": "Kd", "setting": "[9]", "value": 11.4, "unit": "nM"}, {"measurement": "koff", "setting": "[9]", "value": 0.0012, "unit": "s⁻¹"}, {"measurement": "kon", "setting": "[9]", "value": 105000, "unit": "M⁻¹ s⁻¹"}]}]}
